Measured values as given in patent US5637461.
Construct, isoform or probe ends are uncertain for at least one entry.

Target: HIV-1 Tat protein (HIV-1) (UniProt P04608)
Experiment: binding assay
Conditions: CITED natural tat ligand; purified recombinant protein; protein details: American Bio-Technologies, Inc.

CCAGAUCUGAGCCUGGGAGCUUCUGG [TAR RNA]: binds.
